A mixed list of measured activities; the numbers were collected in NIAID ChemDB.

Shared fields: whole-cell or culture tests; agent: HIV-1

Neighbouring rows are from separate reports. ECn: concentration that inhibits the pathogen or its effect by n%. An empty or dashed field is not shown.

smiles | strain or isolate | method | cells | setting | measure | changes | value
O=C(O)c1cc(-n2cccc2)ccc1Cl | 93BR020 X4R5 CLADE F | luciferase / cell fusion | PBMC/5.25M7 | - | EC50 | - | 10.08 µM
CC(C)c1c(Cc2cccc3ccccc23)n(COCCO)c(=O)[nH]c1=O | LAV | - | CEM | - | EC50 | - | 0.111 µM
Cc1cc(C)cc(Cc2c(C(C)C)c(=O)[nH]c(=O)n2COCCOc2ccccc2)c1 | A17 | MTT | MT-4 | - | EC50 | K103N + Y181C | 13.3 µM
CC(=O)OCCOCn1c(-c2ccccc2)c(-c2ccccc2)c([N+](=O)[O-])c1-c1ccccc1 | - | cytopathic effect / MTT | MT-4 | - | EC50 | - | >300 µM
Nc1ncnc2c1ncn2[C@@H]1O[C@H](COC2(c3ccccc3)c3ccccc3Oc3ccccc32)[C@@H](OC2(c3ccccc3)c3ccccc3Oc3ccccc32)[C@H]1OC1CCCCO1 | IIIB | RT activity | PBMC | - | EC50 | - | 1.5 µM
C=C1CN(S(=O)(=O)c2ccc(C)cc2)CCCN(CC(C)C)CCCN(S(=O)(=O)c2ccc(C)cc2)C1 | NL4-3 | p24 | MT-4 | - | EC50 | - | 19.3 µM
CCOC(=O)c1c([N+](=O)[O-])c(-c2ccccc2)n(COCCOC(C)=O)c1C | - | cytopathic effect / MTT | MT-4 | - | EC50 | - | >169 µM
NC1=NS(=O)(=O)N(Cc2ccccc2)c2ncn([C@@H]3CS[C@@H](CO)O3)c21 | RF | - | MT-4 | - | EC50 | - | >100 µg/mL
COCn1c(Cc2cccc3ccccc23)c(C(C)C)c(=O)[nH]c1=O | LAV | - | MT-4 | - | EC50 | - | 0.065 µM
Cc1ncnc(C)c1C(=O)N1C[C@H]2CN(CCC(c3ccccc3)C3CN(S(=O)(=O)C4CC4)C3)C[C@H]2C1 | - | cell fusion | - | - | EC50 | - | 0.313 µM
O=C1C=CN([C@H]2CS[C@@H](CO)O2)S(=O)(=O)N1 | RF | - | MT-4 | - | EC50 | - | >100 µg/mL
CCOC(=O)c1c(Cl)c(-c2ccccc2)n(COCCO)c1C | - | cytopathic effect / MTT | MT-4 | - | EC50 | - | >111 µM
Cc1ncnc(C)c1C(=O)N1C[C@H]2CN(CCC(c3ccccc3)C3CN(C(=O)C4CCCC4)C3)C[C@H]2C1 | - | cell fusion | - | - | EC50 | - | 2.832 µM
COc1cc(Cc2[nH]c(=O)[nH]c(=O)c2C(C)C)cc(OC)c1 | A17 | MTT | MT-4 | - | EC50 | K103N + Y181C | >100 µM
CCc1c(Cc2cccc3ccccc23)n(COCCO)c(=O)[nH]c1=O | LAV | - | CEM | - | EC50 | - | 0.762 µM
CCc1c(Cc2ccccc2)n(COCCOc2ccccc2)c(=O)[nH]c1=O | N119 | MTT | MT-4 | - | EC50 | Y181C | >32 µM
CSCSc1nc(Cc2ccccc2)c(C(C)C)c(=O)[nH]1 | IIIB | MTT / p24 | PBMC | - | EC50 | - | <0.001 µM
O=C1c2ccccc2C(=O)N1C1CC2CC3CC(C2)CC1C3 | IIIB | syncytia | CEM | - | EC50 | - | >4 µg/mL
CC1=CN([C@@H]2CS[C@@H](CO)O2)S(=O)(=O)NC1=O | RF | - | MT-4 | - | EC50 | - | >100 µg/mL
Cc1c(Cc2cccc3ccccc23)n(COCCO)c(=O)[nH]c1=O | LAV | - | CEM | - | EC50 | - | 0.559 µM
NC1=NS(=O)(=O)N(Cc2ccccc2)c2ncn([C@H]3CS[C@@H](CO)O3)c21 | RF | - | MT-4 | - | EC50 | - | >100 µg/mL
C[C@@H]1CN2C[C@H]3CCC4=C5C(=CC[C@@]56C(=O)C1C[C@@H]2[C@@]36C)CC[C@@]41C[C@H]2CC[C@@H]3CN4C[C@@H](C)[C@H]5C[C@@H]4[C@]3(C)[C@]3(CCC1=C23)C5=O | NL4-3 | MTT | MT-4 | - | EC50 | - | 4.5 µM
COc1cc(Cc2[nH]c(=S)[nH]c(=O)c2C(C)C)cc(OC)c1 | IIIB | MTT | MT-4 | - | EC50 | Efavirenz-resistant (K103R + V179D + P225H) | >100 µM
Cc1nc2c(ccn2Cc2cccc(F)c2F)c(-c2ccc3c(c2C)N(C)CCO3)c1[C@H](OC(C)(C)C)C(=O)O | - | luciferase | MT-4 | - | EC50 | - | 0.006 µM
Cc1ncnc(C)c1C(=O)N1C[C@H]2CN(CCC(c3ccccc3)C3CN(C(=O)CC(C)C)C3)C[C@H]2C1 | - | cell fusion | - | - | EC50 | - | 5 µM
CCOCn1c(Cc2cccc3ccccc23)c(C(C)C)c(=O)[nH]c1=O | LAV | - | CEM | - | EC50 | - | 0.06 µM
Nc1cc(Cl)nc2c1ncn2[C@H]1CC[C@@H](CO)O1 | IIIB | - | C8166 | - | EC50 | - | >1000 µM
N#Cc1c([N+](=O)[O-])c(-c2ccccc2)n(COCCO)c1-c1ccccc1 | - | cytopathic effect / MTT | MT-4 | - | EC50 | - | >300 µM
O=C1c2ccccc2C(=O)N1CC12CC3CC(CC(O)(C3)C1)C2 | IIIB | syncytia | CEM | - | EC50 | - | >20 µg/mL
O=C(O)c1c([N+](=O)[O-])c(-c2ccccc2)n(COCCO)c1-c1ccccc1 | - | cytopathic effect / MTT | MT-4 | - | EC50 | - | >300 µM
O=C1c2ccccc2C(=O)N1C12CC3CC(CC(C(=O)O)(C3)C1)C2 | IIIB | syncytia | CEM | - | EC50 | - | >20 µg/mL
NC1=NC=NC2C1N=CN2[C@H]1C[C@@H](CCP(=O)(O)O)CO1 | - | MTT | MT-4 | - | EC90 | - | 80 µg/mL
CC(C)C1=C2[C@H]3CC[C@@H]4[C@@]5(C)CC[C@H](OC(=O)CC(C)(C)C(=O)O)C(C)(C)[C@@H]5CC[C@@]4(C)[C@]3(C)CC[C@@]2(C(=O)Nc2cccnc2)CC1=O | IIIB | RT activity | MT-2 | 30% human serum | EC50 | - | <0.199 µM
O=C1c2ccccc2[C@@]2(O)[C@H]3C4CC5CC(C4)CC3(C5)CN12 | IIIB | syncytia | CEM | - | EC50 | - | >4 µg/mL
CC1=CN([C@H]2CS[C@@H](CO)O2)S(=O)(=O)NC1=O | RF | - | MT-4 | - | EC50 | - | >100 µg/mL
CC(C)C1=C2[C@H]3CC[C@@H]4[C@@]5(C)CC[C@H](OC(=O)CC(C)(C)C(=O)O)C(C)(C)[C@@H]5CC[C@@]4(C)[C@]3(C)CC[C@@]2(C(=O)NC2CCN(C(=O)OC(C)(C)C)CC2)CC1=O | IIIB | RT activity | MT-2 | 30% human serum | EC50 | - | <0.199 µM
O=C1c2ccccc2C(=O)N1C1C2CC3CC(C2)CC1C3 | IIIB | syncytia | CEM | - | EC50 | - | >4 µg/mL
C=C1CN(S(=O)(=O)c2ccc(C)cc2)CCCN(Cc2cccnc2)CCCN(S(=O)(=O)c2ccc(C)cc2)C1 | NL4-3 | p24 | MT-4 | - | EC50 | - | 5.6 µM
CC(=O)OCC1=C[C@@H]2C(=O)[C@]3(C=C(C)[C@H](OC(C)=O)[C@@]3(O)[C@@H]1OC(C)=O)[C@H](C)C[C@@H]1[C@H]2C1(C)C | A018A | cytopathic effect / MTT | MT-4 | - | EC50 | - | 0.65 µM
CC(C)[C@H](NC(=O)[C@H](C)C[C@H](O)[C@H](Cc1ccccc1)NC(=O)[C@H](C)NC(=O)OCc1ccccc1)C(N)=O | IIIB | RT activity | MOLT-4 | - | EC50 | - | >100 µM
COCn1c(Cc2ccc3ccccc3c2)c(C)c(=O)[nH]c1=O | LAV | - | MT-4 | - | EC50 | - | 15.6 µM
Nc1c(-c2ccccc2)c(-c2ccccc2)n(COCCO)c1-c1ccccc1 | - | cytopathic effect / MTT | MT-4 | - | EC50 | - | >42 µM
COc1cc(Cc2c(C(C)C)c(=O)[nH]c(=O)n2COCCOc2ccccc2)cc(OC)c1 | IIIB | MTT | MT-4 | - | EC50 | Efavirenz-resistant (K103R + V179D + P225H) | >33 µM
Cc1cn([C@@H]2O[C@H](COCC(C)C)C3(OS(=O)(=O)C=C3N)[C@H]2O[Si](C)(C)C(C)(C)C)c(=O)n(C)c1=O | - | - | CEM + CEM-SS | - | EC50 | - | 0.6 µM
CC(C)C1=C2[C@H]3CC[C@@H]4[C@@]5(C)CC[C@H](OC(=O)CC(C)(C)C(=O)O)C(C)(C)[C@@H]5CC[C@@]4(C)[C@]3(C)CC[C@@]2(C(=O)Nc2ccccn2)CC1=O | IIIB | RT activity | MT-2 | 30% human serum | EC50 | - | <0.199 µM
COC(=O)[C@@H](NC(=O)[C@@H](NC(=O)[C@H](C)C[C@H](O)[C@H](Cc1ccccc1)NC(=O)[C@H](C)NC(=O)[C@H](C)NC(=O)OCc1ccccc1)C(C)C)C(C)C | IIIB | RT activity | MOLT-4 | - | EC50 | - | 0.85 µM
C=C1CN(S(=O)(=O)c2ccc(C)cc2)CCCN(C2CCCC2)CCCN(S(=O)(=O)c2ccc(C)cc2)C1 | NL4-3 | p24 | MT-4 | - | EC50 | - | 6.39 µM
Cc1c(C(C#N)c2ccccc2)nc(SC(C)C)[nH]c1=O | IIIB | MTT | MT-4 | - | EC50 | - | 0.002 µM
C=C1CN(S(=O)(=O)c2ccc(N)cc2)CCCN(Cc2ccccc2)CCCN(S(=O)(=O)c2ccc(N)cc2)C1 | NL4-3 | p24 | MT-4 | - | EC50 | - | >15 µM
Cc1nnc(N)nc1C/C=C/C(Sc1ccc(Cl)cc1)c1cccs1 | RF | - | MT-2 | - | EC50 | - | ~0.2 µM
Cc1nc2c(ccn2Cc2cccc(F)c2F)c(-c2ccc3c(c2C)NCCO3)c1[C@H](OC(C)(C)C)C(=O)O | - | luciferase | MT-4 | - | EC50 | - | 0.14 µM
COC(=O)[C@@H](NC(=O)[C@@H](NC(=O)CC[C@H](O)[C@H](Cc1ccccc1)NC(=O)[C@H](C)NC(=O)[C@H](C)N)C(C)C)C(C)C | IIIB | RT activity | MOLT-4 | - | EC50 | - | 8 µM
O=C1c2ccccc2[C@@]2(O)C3C4C[C@H]5CC(C[C@H]3C5)C4N12 | IIIB | syncytia | CEM | - | EC50 | - | >20 µg/mL
CCCc1c(Cc2cccc3ccccc23)n(COCc2ccccc2)c(=O)[nH]c1=O | LAV | - | CEM | - | EC50 | - | 0.22 µM
OC[C@@H]1CC[C@H](n2cnc3c(NC4CCCC4)ccnc32)O1 | IIIB | - | C8166 | - | EC50 | - | 40 µM
COC(=O)N1CCC(C(CCN2C[C@@H]3CN(C(=O)c4c(C)ncnc4C)C[C@@H]3C2)c2ccccc2)CC1 | - | cell fusion | - | - | EC50 | - | 0.744 µM
CCc1c(Cc2cc(OC)cc(OC)c2)[nH]c(=S)[nH]c1=O | IIIB | MTT | MT-4 | - | EC50 | - | >100 µM
CC(C)C1=C2[C@H]3CC[C@@H]4[C@@]5(C)CC[C@H](OC(=O)CC(C)(C)C(=O)O)C(C)(C)[C@@H]5CC[C@@]4(C)[C@]3(C)CC[C@@]2(C(=O)Nc2ccncc2)CC1=O | IIIB | RT activity | MT-2 | 30% human serum | EC50 | - | <0.199 µM
Cc1ncnc(C)c1C(=O)N1C[C@H]2CN(CCC(c3cccc(F)c3)C3CN(S(=O)(=O)C4CC4)C3)C[C@H]2C1 | - | cell fusion | - | - | EC50 | - | 0.03 µM

A second listing of 7 rows from above:

smiles	strain or isolate	method	cells	setting	measure	changes	value
Cc1ncnc(C)c1C(=O)N1C[C@H]2CN(CCC(c3ccccc3)C3CN(S(=O)(=O)C4CC4)C3)C[C@H]2C1	-	cell fusion	-	-	EC50	-	0.313 µM
C=C1CN(S(=O)(=O)c2ccc(C)cc2)CCCN(C2CCCC2)CCCN(S(=O)(=O)c2ccc(C)cc2)C1	NL4-3	p24	MT-4	-	EC50	-	6.39 µM
C[C@@H]1CN2C[C@H]3CCC4=C5C(=CC[C@@]56C(=O)C1C[C@@H]2[C@@]36C)CC[C@@]41C[C@H]2CC[C@@H]3CN4C[C@@H](C)[C@H]5C[C@@H]4[C@]3(C)[C@]3(CCC1=C23)C5=O	NL4-3	MTT	MT-4	-	EC50	-	4.5 µM
COC(=O)N1CCC(C(CCN2C[C@@H]3CN(C(=O)c4c(C)ncnc4C)C[C@@H]3C2)c2ccccc2)CC1	-	cell fusion	-	-	EC50	-	0.744 µM
Cc1nc2c(ccn2Cc2cccc(F)c2F)c(-c2ccc3c(c2C)N(C)CCO3)c1[C@H](OC(C)(C)C)C(=O)O	-	luciferase	MT-4	-	EC50	-	0.006 µM
Nc1c(-c2ccccc2)c(-c2ccccc2)n(COCCO)c1-c1ccccc1	-	cytopathic effect / MTT	MT-4	-	EC50	-	>42 µM
O=C1c2ccccc2C(=O)N1CC12CC3CC(CC(O)(C3)C1)C2	IIIB	syncytia	CEM	-	EC50	-	>20 µg/mL